Experimental findings from EP0606747A1, “Tilmicosin and derivatives for treating gram-positive diseases of aquatic species” (ELI LILLY AND COMPANY, priority 1992, dated 1994) are described below.

Marks after values point to notes of the source that are not given here.

A short description of this data set: Test 3: palatability and growth study in Atlantic salmon, tilmicosin base versus phosphate salt. Type of data set: in vivo, Atlantic salmon (Salmo salar). Conditions: 800 mg/kg of diet (free base equivalent), four weeks; for Feed conversion / Mean feeding rate (%BW) / Total feed intake (g) / Total tank weight gain (%BW) / Total tank weight gain (g): three tanks of 30 fish, spread in brackets. As to the method:
Test 3: Palatability and Growth Studies in Atlantic Salmon, Comparing Tilmicosin Base and Phosphate Salt
A trial was conducted to determine the palatability to Atlantic salmon (Salmo salar), St. John River strain, of diets containing either tilmicosin (free base) or tilmicosin phosphate. Pre-smolt salmon, each weighing about 50 grams, from a certified disease free stock, were used. The salmon, 30 per tank and 9 tanks, were acclimatized for about two weeks. During this period and throughout the trial, the tanks were maintained with fresh single-pass flow-through well water, 2 liters per minute, 12 ± 1°C., and the photoperiod was 12/12. During the acclimatization, all fish were fed a standard feed. Thereafter the salmon in three tanks continued to receive the standard diet, to serve as a control. The salmon in three other tanks received a modified diet containing 800 mg of tilmicosin (free base) per kilogram of diet; the salmon in the last three tanks received a modified diet containing tilmicosin phosphate in an amount equivalent to 800 mg of tilmicosin (free base) per kilogram of diet. All fish were fed to satiation, defined as the point at which there is a noticeable decline in the feeding response. Feed was supplied 3× on weekdays and 1× on weekend days. The trial was continued for a four-week period, during which these parameters were evaluated: feed intake feed intake as % of body weight weight gain weight gain as % of body weight feed conversion All surviving fish were euthanized. The results are set forth in the following table; mean values with the same alphabetic superscript were not statistically different at the 0.05 level.

As to `CC[C@H]1OC(=O)C[C@@H](O)[C@H](C)[C@@H](O[C@@H]2O[C@H](C)[C@@H](O)[C@H](N(C)C)[C@H]2O)[C@@H](CCN2C[C@H](C)C[C@H](C)C2)C[C@@H](C)C(=O)/C=C/C(C)=C/[C@@H]1CO[C@@H]1O[C@H](C)[C@@H](O)[C@@H](OC)[C@H]1OC` [tilmicosin], the “rate of consumption versus unmedicated diets” value was “consumed at the same rate as unmedicated diets”, the Feed conversion is recorded as 0.79 (0.02)^a, the “Mean feeding rate (%BW)” value is on record as 1.40 (0.06)^a %BW and the “Total feed intake (g)” value is 658.9 (22.9)^a g. The “Total tank weight gain (%BW)” value is 53.5 (0.9)^a %BW and the “Total tank weight gain (g)” value was 831.0 (51.8)^a g.

Regarding tilmicosin phosphate, the “rate of consumption versus unmedicated diets” value is listed as “consumed at the same rate as unmedicated diets”, the Feed conversion was 0.78 (0.04)^a, the “Mean feeding rate (%BW)” value was 1.38 (0.02)^a %BW and the “Total feed intake (g)” value is on record as 625.5 (15.5)^a g. In addition, the “Total tank weight gain (%BW)” value was 53.7 (3.9)^a %BW and the “Total tank weight gain (g)” value is 802.3 (52.9)^a g.
